Compound potency records, mixed from different reports. Data source: NIAID ChemDB in PubChem.

Inhibition is in % at the dose shown (toxicity tests: loss of growth or viability). ICn is the concentration giving n% inhibition. CCn is the concentration with n% toxicity to the cells. MIC50, MIC90 and the like: level of inhibition, or share of isolates inhibited. ECn is the concentration giving n% inhibition of infection, replication or growth. Lines come from different laboratories, so protocols vary. An empty or dashed field is not shown.

compound | cell line | protein | tested at | test | method | organism | strain | endpoint | result
Fc1ccc(-c2cncc(N3CCN(c4ccc(F)cc4)CC3)n2)cc1 | - | UL97 kinase | 10 µM | target | - | Cytomegalovirus | - | inhibition | >15%
O=C(Nc1cc(S(=O)(=O)[O-])cc2cc(S(=O)(=O)[O-])ccc12)c1ccccc1 | Human amnion AV3 cells | - | 10 µg/mL | culture | cytopathic effect | Herpes simplex virus | - | inhibition | 5%
c1ccc(-c2cncc(N3CCN(c4ccccn4)CC3)n2)cc1 | - | UL97 kinase | - | target | - | Cytomegalovirus | - | IC50 | <10 µM
O=C1C(c2[nH]c3ccc(S(=O)(=O)O)cc3c2O)=Nc2ccc(S(=O)(=O)O)cc21 | Human conjunctiva cells | - | 50 µg/mL | culture | cytopathic effect | Herpes simplex virus | - | inhibition | 0%
O=C(NC1CC1)c1c(O)c2cccnc2n(O)c1=O | HeLa | - | - | toxicity | - | - | - | CC50 | <100 µM
C=CCc1ccc(OC)c(OC)c1 | - | - | - | culture | turbidity | Candida glabrata | 2892 | MIC90 | 345 µg/mL
Clc1cccc(N2CCN(c3cncc(-c4ccccc4Oc4ccccc4)n3)CC2)c1 | - | UL97 kinase | 10 µM | target | - | Cytomegalovirus | - | inhibition | >15%
CCOC(=O)c1c(C)nc(NCCCCNc2ccnc3cc(Cl)ccc23)nc1-c1ccccc1[N+](=O)[O-] | - | - | - | culture | - | Cryptococcus gattii | ATCC 32608 | MIC99 | 16 µg/mL
CCC(CC)O[C@@H]1C=C(C(=O)O)C[C@H](N)[C@H]1NC(C)=O | MDCK | - | - | culture | visual reading | Influenza A virus | H3N2 A/X-31 | EC50 | 0.03 µM
Fc1ccc(N2CCN(c3cncc(-c4ccoc4)n3)CC2)c(F)c1 | - | UL97 kinase | 1 µM | target | - | Cytomegalovirus | - | inhibition | <50%
O=S(=O)(O)c1cccc2c(O)cccc12 | Human amnion AV3 cells | - | 5 µg/mL | culture | cytopathic effect | Herpes simplex virus | - | inhibition | 0%
CCOC(=O)c1ccc(OCCC2CCN(c3ccc(C)nn3)CC2)cc1 | KB | - | - | culture | neutral red | Rhinovirus | 1-CV15 (ICAM-1 receptor group 11) | EC50 | 0.271 µM
COc1ccc(-c2ccncc2)cc1-c1cc(=O)n(O)c2ncccc12 | HeLa | - | - | toxicity | - | - | - | CC50 | <100 µM
O=S(=O)([O-])c1ccc(O)c2ccccc12 | Human amnion AV3 cells | - | 10 µg/mL | culture | cytopathic effect | Rhinovirus | - | inhibition | 0%
Fc1ccc(N2CCCCC2)c(NC(=S)c2ccncc2)c1 | - | CRIK | 10 µM | host protein | kinase activity | - | - | inhibition | 3.5%
O=S(=O)(O)c1ccc2cc(O)c(S(=O)(=O)O)cc2c1 | Human conjunctiva cells | - | 10 µg/mL | culture | cytopathic effect | Herpes simplex virus | - | inhibition | 0%
Oc1ccccc1N=Cc1cccc(O)c1O | - | - | - | culture | - | Cryptococcus gattii | 23/10993 | MIC99 | 4 µg/mL
CSc1ccc(-c2cncc(N3CCN(c4cccc(Cl)c4)CC3)n2)cc1 | - | UL97 kinase | 1 µM | target | - | Cytomegalovirus | - | inhibition | <50%
Cc1ccc(C(=O)Nc2ccc(S(=O)(=O)O)c3cc(S(=O)(=O)O)cc(S(=O)(=O)O)c23)cc1NC(=O)c1cccc(NC(=O)Nc2cccc(C(=O)Nc3cc(C(=O)Nc4ccc(S(=O)(=O)O)c5cc(S(=O)(=O)O)cc(S(=O)(=O)O)c45)ccc3C)c2)c1 | Human conjunctiva cells | - | 50 µg/mL | culture | cytopathic effect | Herpes simplex virus | - | inhibition | 100%
CCOC(=O)c1c(C)nc(NCCCCNc2ccnc3cc(Cl)ccc23)nc1-c1ccccc1 | - | - | - | culture | - | Cryptococcus gattii | 23/10993 | MIC99 | 5.7 µg/mL
NS(=O)(=O)O | Human embryonic lung cells | - | 50 µg/mL | culture | cytopathic effect | Adenovirus | TYPE 3 | inhibition | 0%
Oc1ccccc1N=Cc1ccc2c(c1)OCO2 | - | - | - | culture | - | Cryptococcus neoformans | C-3-1 | MIC99 | 4 µg/mL
O=C(Nc1cc(S(=O)(=O)O)cc2cc(S(=O)(=O)O)cc(O)c12)c1ccccc1 | Human conjunctiva cells | - | 10 µg/mL | culture | cytopathic effect | Herpes simplex virus | - | inhibition | 0%
Oc1cccc(C=Nc2ccccc2O)c1 | - | - | - | culture | - | Cryptococcus gattii | LMM 818 | MIC99 | 5.7 µg/mL
O=C(Nc1ccccc1OCc1ccccn1)c1c(O)c2cccnc2n(O)c1=O | HeLa | - | - | toxicity | - | - | - | CC50 | >100 µM
Oc1ccccc1C=Nc1ccccc1O | - | - | - | culture | broth dilution | Cryptococcus neoformans | ATCC 62066 | MIC | 2 µg/mL
CC(NCc1cccc(Cl)c1)c1cnc2c(c1)c(O)c(-c1ccccc1)c(=O)n2O | HeLa | - | - | toxicity | - | - | - | CC50 | <100 µM
CCOC(=O)c1cnc(NCCCCNc2ccnc3cc(Cl)ccc23)nc1C | - | - | - | culture | - | Cryptococcus neoformans | LMM 820 | MIC99 | 8 µg/mL
FC(F)(F)c1cc(-c2cncc(N3CCN(c4ccccc4)CC3)n2)cc(C(F)(F)F)c1 | - | UL97 kinase | 10 µM | target | - | Cytomegalovirus | - | inhibition | >15%

The first 4 rows once more:

{"compound": "Fc1ccc(-c2cncc(N3CCN(c4ccc(F)cc4)CC3)n2)cc1", "protein": "UL97 kinase", "tested at": "10 µM", "test": "target", "organism": "Cytomegalovirus", "endpoint": "inhibition", "result": ">15%"}
{"compound": "O=C(Nc1cc(S(=O)(=O)[O-])cc2cc(S(=O)(=O)[O-])ccc12)c1ccccc1", "cell line": "Human amnion AV3 cells", "tested at": "10 µg/mL", "test": "culture", "method": "cytopathic effect", "organism": "Herpes simplex virus", "endpoint": "inhibition", "result": "5%"}
{"compound": "c1ccc(-c2cncc(N3CCN(c4ccccn4)CC3)n2)cc1", "protein": "UL97 kinase", "test": "target", "organism": "Cytomegalovirus", "endpoint": "IC50", "result": "<10 µM"}
{"compound": "O=C1C(c2[nH]c3ccc(S(=O)(=O)O)cc3c2O)=Nc2ccc(S(=O)(=O)O)cc21", "cell line": "Human conjunctiva cells", "tested at": "50 µg/mL", "test": "culture", "method": "cytopathic effect", "organism": "Herpes simplex virus", "endpoint": "inhibition", "result": "0%"}